Patent US5648337 (dated 1997)

Experiment: general procedure: Boc solid-phase peptide synthesis; BHA-photoresin [4-(2-chloropropionyl)phenoxy]acetamidomethyl-copoly(styrene-1% divinyl-benzene) resin; BOP/HOBt
Conditions: late stage modification step, analytical HPLC

| Substance | crude HPLC purity [%] | final HPLC purity [% pure] |
| --- | --- | --- |
| PhCH2 CH2 CO-N-Me-Val-Ile-Asn-Asp-NHCH[CH2 CH(CH3)2 ]-5-1H-tetrazole | 90 | – |
| PhCH2 CH2 CO-N-Me-Val-Ile-NHCH[CH2 -5-1H-tetrazole]CO-Asp-Leu-OH | – | 100 |
